PubChem BioAssay AID1224833, University of Georgia, 2016
The whole screen tested about 12,000 reagents; shown is a random part of them. Over the whole deposit, about 5,600 (46%) are marked active. 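Active calls cover z-scores past 1 in both directions, so they include lowered as well as raised rotavirus replication.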 A number with no mark means an inactive call.

Aim: 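Human genes whose knock-down alters rotavirus replication in monkey cells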 (primary screen)
System: monkey MA104 kidney cells
Reagents: siRNA pool against human genes, 50 nM
Timing: 48 h knock-down before infection; read 24 h after infection
Conditions: infection with rotavirus strain RV3 two days after transfection; infectious dose for this stage not given
Measured: 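Rotavirus antigen per well by fluorescent immunoassay, normalised to non-targeting control wells on each plate and given as a standard z-score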
Direction: z-score vs non-targeting control: higher = more rotavirus replication than with non-targeting control
Active means: In these data the active calls have z-score vs non-targeting control at about -1 or lower, or at about 1 or higher
Calls: active = z-score beyond 1 either way; inactive = z-score within 1 of zero

For PAICS (GeneID 10606), the values are z-score vs non-targeting control -1.48 (active). With knock-down of CRELD1 (GeneID 78987), the screen gave z-score vs non-targeting control -0.821. Silencing of HOXC12 (GeneID 3228) came out at: z-score vs non-targeting control -0.67. With knock-down of SPRR4 (GeneID 163778), the record shows z-score vs non-targeting control 1.75 (active). Silencing of OR6X1 (GeneID 390260) resulted in: z-score vs non-targeting control 0.528. Depletion of TBC1D16 (GeneID 125058) came out at: z-score vs non-targeting control -0.155.

After knock-down of NKX2-1 (GeneID 7080), the screen gave z-score vs non-targeting control 0.637. KRTAP20-1 (GeneID 337975) gave z-score vs non-targeting control -0.307. Knock-down of EPB41L1 (GeneID 2036) resulted in: z-score vs non-targeting control 0.78. ANTXR1 (GeneID 84168) showed z-score vs non-targeting control -1.07 (active). For TRUB2 (GeneID 26995), the entry reads z-score vs non-targeting control -0.678. CPE (GeneID 1363) showed z-score vs non-targeting control 0.821.

VNN2 (GeneID 8875) scored z-score vs non-targeting control -3.15 (active). GPC6 (GeneID 10082) showed z-score vs non-targeting control -1.4 (active). Against TACC2 (GeneID 10579), the entry reads z-score vs non-targeting control 0.279. Depletion of KIF1A (GeneID 547) resulted in: z-score vs non-targeting control -0.5. SLC39A9 (GeneID 55334) showed z-score vs non-targeting control -2.07 (active). With knock-down of VAX1 (GeneID 11023), the record shows z-score vs non-targeting control 0.204.

Silencing of AP1G2 (GeneID 8906) gave: z-score vs non-targeting control -1.41 (active). Knock-down of EPB41 (GeneID 2035) resulted in: z-score vs non-targeting control 0.592. Silencing of PRDM14 (GeneID 63978) resulted in: z-score vs non-targeting control 0.94. CRTAP (GeneID 10491) scored z-score vs non-targeting control -0.284. Depletion of ARFGAP2 (GeneID 84364) resulted in: z-score vs non-targeting control 1.17 (active). Against ADRA2C (GeneID 152) the deposit lists z-score vs non-targeting control -1.53 (active).

GFRA1 (GeneID 2674) scored z-score vs non-targeting control -1.1 (active). With knock-down of HOXA7 (GeneID 3204) the results were z-score vs non-targeting control 1.12 (active). With knock-down of SLC25A23 (GeneID 79085), the record shows z-score vs non-targeting control -2.2 (active). RASSF9 (GeneID 9182) scored z-score vs non-targeting control -1.17 (active). Depletion of SNTB1 (GeneID 6641) resulted in: z-score vs non-targeting control 0.501. Depletion of TMBIM6 (GeneID 7009) came out at: z-score vs non-targeting control -0.775.

Against APOBEC3H (GeneID 164668), the entry reads z-score vs non-targeting control -0.321. Against ZNF485 (GeneID 220992), the values are z-score vs non-targeting control -1.17 (active). For CCT3 (GeneID 7203), the values are z-score vs non-targeting control 1.07 (active). With knock-down of EDNRA (GeneID 1909), the record shows z-score vs non-targeting control -1.16 (active). Depletion of IL13 (GeneID 3596) gave: z-score vs non-targeting control -1.4 (active). After knock-down of RRS1 (GeneID 23212) the results were z-score vs non-targeting control 1.39 (active).

PCNX4 (GeneID 64430) showed z-score vs non-targeting control -1.27 (active). Knock-down of WNT6 (GeneID 7475) came out at: z-score vs non-targeting control -0.289. Knock-down of MT1F (GeneID 4494) resulted in: z-score vs non-targeting control 1.23 (active).

A run of entries from the list above, for reference:
CRTAP (GeneID 10491): z-score vs non-targeting control = -0.284
ARFGAP2 (GeneID 84364): z-score vs non-targeting control = 1.17 (active)
ADRA2C (GeneID 152): z-score vs non-targeting control = -1.53 (active)
GFRA1 (GeneID 2674): z-score vs non-targeting control = -1.1 (active)
HOXA7 (GeneID 3204): z-score vs non-targeting control = 1.12 (active)
SLC25A23 (GeneID 79085): z-score vs non-targeting control = -2.2 (active)
RASSF9 (GeneID 9182): z-score vs non-targeting control = -1.17 (active)

The list goes on:
MRPL34 (GeneID 64981) gave z-score vs non-targeting control -1.64 (active). With knock-down of VARS2 (GeneID 57176) the results were z-score vs non-targeting control 0.23. For IWS1 (GeneID 55677) the deposit lists z-score vs non-targeting control 0.979. Against GCC2 (GeneID 9648), the values are z-score vs non-targeting control -1.94 (active). For COLEC12 (GeneID 81035), the entry reads z-score vs non-targeting control 0.847. Depletion of SPATA9 (GeneID 83890) came out at: z-score vs non-targeting control -2.69 (active).

Silencing of HYI (GeneID 81888) gave: z-score vs non-targeting control -1.09 (active). With knock-down of AKAP3 (GeneID 10566), the screen gave z-score vs non-targeting control 0.959. SOX10 (GeneID 6663) scored z-score vs non-targeting control 1.35 (active). Depletion of CCL26 (GeneID 10344) resulted in: z-score vs non-targeting control 0.0919. For RBM41 (GeneID 55285), the entry reads z-score vs non-targeting control -0.97. BPIFA1 (GeneID 51297) gave z-score vs non-targeting control 0.242.

With knock-down of LHB (GeneID 3972), the record shows z-score vs non-targeting control 0.0348. For ASPG (GeneID 374569) the deposit lists z-score vs non-targeting control -1.11 (active). After knock-down of DEFB129 (GeneID 140881), the record shows z-score vs non-targeting control -1.05 (active). Knock-down of H1-6 (GeneID 3010) came out at: z-score vs non-targeting control 0.232. PHYHIPL (GeneID 84457) gave z-score vs non-targeting control 0.292. WDR89 (GeneID 112840) gave z-score vs non-targeting control 0.324.

For RAB39A (GeneID 54734), the entry reads z-score vs non-targeting control -0.891. For L3MBTL3 (GeneID 84456), the values are z-score vs non-targeting control -1.07 (active). After knock-down of TMEM270 (GeneID 135886), the screen gave z-score vs non-targeting control 0.723.
